Target: viral CC chemokine inhibitor (vCCI), rabbitpox, produced in Pichia pastoris (rabbitpox virus)
Experiment: fluorescence polarisation

In the case of “viral Macrophage Inflammatory Protein-II (vMIP-II) (from UniProt Q98157 21-94) (natural protein)”, the Kd is reported as 0.06 nM.

— article PMC5578167, “Biophysical and Computational Studies of the vCCI:vMIP-II Complex” (2017)
